Compound potency records, mixed from different reports. Data source: NIAID ChemDB in PubChem.

Shared fields: toxicity to cultured cells; endpoint: CC50

Blank or dashed fields: not listed here.

structure | method | cell line | conditions | value
C/C=C/C=N/N(c1nnc(-c2ccccc2)c(-c2ccccc2)n1)S(=O)(=O)c1ccc(C)cc1 |  | VERO |  | 2.4 µg/mL
COC1CCC(c2cc(C(=O)NN)nc3ccccc23)CC1 | MTT / absorbance | Mouse fibroblasts |  | >200 µg/mL
COc1ccc2c(C)cc(N/N=C/c3ccc(OC)c4ccccc34)nc2c1 |  | VERO |  | 1.27 µg/mL
CC[C@@]1(O)C(=O)OCc2c1cc1n(c2=O)Cc2cc3ccccc3nc2-1 |  | IMR90 |  | 0.43 µM
ClCN1CC[N+]2(CC1)CC[N+]1(CCN(CCl)CC1)CC2 |  | K562 |  | 305.4 µg/mL
Cn1c(=O)c2nc(-c3ccccc3)nnc2n(C)c1=O |  | VERO |  | 1.03 µg/mL
Nc1[nH]n2c(=O)cc(CN3CC[N+]4(CC3)CC[N+]3(CCN(Cc5cc(=O)n6[nH]c(N)c([N+](=O)[O-])c6n5)CC3)CC4)nc2c1[N+](=O)[O-] |  | K562 |  | >70.3 µg/mL
NC(=S)NNC(=O)/C(=C/c1ccc(/C=C(\NC(=O)c2ccccc2)C(=O)NNC(N)=S)cc1)NC(=O)c1ccccc1 |  | VERO |  | 0.2 µg/mL
CN1CCc2cc3c(cc2[C@@H]1[C@@H]1OC(=O)c2c1ccc1c2OCO1)OCO3 |  | KB cells |  | >20 µg/mL
[Cl][Sn]([Cl])([c]1cccs1)[c]1cccs1.c1cnc2c(c1)ccc1cccnc12 |  | VERO |  | 2.2 µg/mL
C[C@@H](O)C1=C[C@@H](n2cnc3c(N)ncnc32)[C@H](O)[C@@H]1O | MTT / neutral red | LLC-MK2 |  | 5.6 µg/mL
COc1cc([C@@H]2c3cc4c(cc3[C@H](OC(C)=O)[C@@H]3COC(=O)[C@@H]23)OCO4)cc(O)c1O |  | MEL-28 |  | 5.84 µM
CN(C)c1ccc(/C=N/NC(=O)c2ccncc2)cc1 |  | VERO |  | >10 µg/mL
Cc1nc(C2CCCCCC2)c([N+](=O)[O-])c(N2CC[N+]3(CC2)CC[N+]2(CCN(c4nc(C)nc(C5CCCCCC5)c4[N+](=O)[O-])CC2)CC3)n1 |  | GMK |  | >65.3 µg/mL
C=C[C@]1(C)C=C2C(=O)c3c(NC=O)cccc3C(C)(C)[C@H]2C[C@H]1O |  | SF268 |  | >100 µM
CCCCN(CCCC)/N=C/C1=C2NC(=O)/C(C)=C\C=C/C(OC)C(OC(N)=O)/C(C)=C/C(C)C(O)C(OC)CC(C)CC(=C(OC)C1=O)C2=O |  | VERO |  | 5.65 µg/mL
Nc1nc(N2CC[N+]3(CC2)CC[N+]2(CCN(c4nc(N)[nH]c(=O)c4[N+](=O)[O-])CC2)CC3)c([N+](=O)[O-])c(=O)[nH]1 |  | GMK |  | >330.9 µg/mL
CCN(CC)CCNc1c(OC)cc(C)c2sc3ccccc3c(=O)c12.O=C(O)/C=C/C(=O)O |  | VERO |  | 5 µg/mL
CN1CCc2cc3c(cc2C(=O)Cc2ccc4c(c2C1)OCO4)OCO3 |  | KB cells |  | >3.5 µg/mL
N#CCc1nc2c(s1)C(=O)c1ccccc1C2=O |  | VERO |  | 6.3 µg/mL
O=[N+]([O-])c1c(Cl)ncnc1NN1CC[N+]2(CC1)CC[N+]1(CCN(Nc3ncnc(Cl)c3[N+](=O)[O-])CC1)CC2 |  | K562 |  | >311.4 µg/mL
CCN(CC)C(=S)S |  | VERO |  | 12.4 µg/mL
COc1cc2c(cc1OC)CN(Cc1ccc(O)cc1)CC2 |  | Vero cells |  | >20 µg/mL
C=C(COCP(=O)(O)O)Cn1cnc2c(=O)[nH]c(N)nc21 |  | F-PBMC |  | 262 µM
COc1cc([C@@H]2c3cc4c(cc3[C@H](OC(C)=O)[C@@H]3COC(=O)[C@@H]23)OCO4)cc2nc3cc(C)c(C)cc3nc12 |  | P-388 |  | 4.8 µM
Cc1ccc(NC(=O)c2ccccc2)cc1Cl |  | VERO |  | >200 µg/mL
NNC(=O)c1cc(C23CC4CC(CC(C4)C2)C3)c2ccccc2n1 | MTT / absorbance | Mouse fibroblasts |  | >200 µg/mL
C/C(=N\NC(=O)c1ccncc1)c1cccc(F)c1 |  | VERO |  | >62.5 µg/mL
COc1cc([C@@H]2c3cc4c(cc3[C@H](OC(C)=O)[C@@H]3COC(=O)[C@@H]23)OCO4)cc2nc3ccccc3nc12 |  | P-388 |  | 1 µM
CC(=O)c1cc(O)c(O)c(=O)cc1C | MTS | HepDES19 | 3 d | 25 µM
CCCC(O)c1cc(C23CC4CC(CC(C4)C2)C3)c2ccccc2n1 | MTT / absorbance | Mouse fibroblasts |  | >200 µg/mL
COc1cc([C@@H]2c3cc4c(cc3[C@H](OC(C)=O)[C@@H]3COC(=O)[C@H]23)OCO4)cc2c1OCCO2 |  | HT-29 |  | 2.2 µM
CO[C@H]1/C=C/O[C@@]2(C)Oc3c(C)c(O)c4c(O)c(c(/C=N/N5CCN(C)CC5)c(O)c4c3C2=O)NC(=O)/C(C)=C\C=C\[C@H](C)[C@H](O)[C@@H](C)[C@@H](O)[C@@H](C)[C@H](OC(C)=O)[C@@H]1C | MTT / absorbance | Mouse fibroblasts |  | >200 µg/mL
O=[N+]([O-])c1c(Cl)ncnc1N1CC[N+]2(CC1)CC[N+]1(CCN(c3ncnc(Cl)c3[N+](=O)[O-])CC1)CC2 |  | K562 |  | 111.5 µg/mL
COc1cc([C@@H]2c3cc4c(cc3[C@H](OC(C)=O)[C@@H]3COC(=O)[C@@H]23)OCO4)cc(OC(C)=O)c1OC(C)=O |  | HT-29 |  | 2.2 µM
Nc1nc2c(ncn2CCOCP(=O)(O)O)c(=O)[nH]1 |  | CrFK |  | 5.6 µM

Again, the opening 2 rows:

structure | method | cell line | conditions | value
C/C=C/C=N/N(c1nnc(-c2ccccc2)c(-c2ccccc2)n1)S(=O)(=O)c1ccc(C)cc1 |  | VERO |  | 2.4 µg/mL
COC1CCC(c2cc(C(=O)NN)nc3ccccc23)CC1 | MTT / absorbance | Mouse fibroblasts |  | >200 µg/mL

CCn: concentration that lowers growth or viability of the cells by n%. Lines come from different laboratories, so protocols vary.